One sequence from paper doi:10.1101/2022.04.26.489556 can be followed below.

For at least one entry, the source does not settle the construct or the ends of the probe. Protein sequences can lack the tags named with them.

This series deals with T1, Rv1019 (TetR family regulator) (UniProt P96381).
T1 sequence (looked up, limits assumed): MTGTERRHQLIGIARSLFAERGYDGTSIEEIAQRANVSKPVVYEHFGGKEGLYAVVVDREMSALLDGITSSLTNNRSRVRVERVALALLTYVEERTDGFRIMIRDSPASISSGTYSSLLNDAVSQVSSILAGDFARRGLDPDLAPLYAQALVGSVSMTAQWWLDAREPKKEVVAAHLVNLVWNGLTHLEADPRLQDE
Briefly: EMSA. Conditions: increasing Rv1019 (2-10 uM), 5 nM DNA.

On to “TAGGTTACGGTACCGTAGCTTT (double strand) [Rv3230c PAL (12-bp inverted repeat with 5-bp flanks)]”, for which the binding result is listed as “binds”.
